Pooled drug test results. Numbers come from NIAID ChemDB, via PubChem.

All rows: tests in culture; species: Herpes simplex virus 1; endpoint: EC50

a–b is a range or a potency band. ECn: concentration that inhibits the pathogen or its effect by n%. Lines come from different laboratories, so protocols vary. An empty or dashed field is not shown.

| structure | strain or isolate | mutations | cells | read by | result |
|---|---|---|---|---|---|
| COc1nc(=O)n([C@H]2C[C@H](O)[C@@H](CO)O2)cc1/C=C/Cl | VMW1837 (TK-) | - | PRK | cytopathic effect | >200 µg/mL |
| Nc1c(N=Cc2ccc(C(F)(F)F)cc2)cc2cccnc2c1Cl | KOS | - | VERO 76 | plaque count | 90 µM |
| CC(C)(C)NC(=O)CN(C(=O)[C@H]1CC[C@@]2(C)C3CC=C4C[C@@H](O)CC[C@]4(C)C3CC[C@]12C)c1ccc(F)cc1 | KOS | - | Vero cells | plaque count | 12 µM |
| Nc1ncc2ncn(CC3(OCP(=O)(O)O)CC3)c2n1 | - | - | HEPG2 2.2.16 | - | >30 µM |
| Nc1nc2c(ncn2COC2COP(=O)(O)OC2)c(=O)[nH]1 | ACG-R | - | MRC-5 | plaque count | 3–6 µM |
| Nc1nc2c(ncn2CC(CO)OCP(=O)(O)O)c(=O)[nH]1 | Schooler | - | WI-38 | plaque count | 0.9 µM |
| Nc1ncnc2c1ncn2[C@@H]1O[C@H](CO)[C@@H](O)[C@H]1OP(=O)(O)OC[C@H]1O[C@@H](n2cnc3c(N)ncnc32)[C@H](OP(=O)(O)OC[C@H]2O[C@@H](n3cc(/C=C/Br)c(=O)[nH]c3=O)C[C@@H]2O)[C@@H]1O | F | - | PRK | cytopathic effect | 0.07 µg/mL |
| C/C(=N/Nc1nc(-c2ccc(Br)cc2)cs1)c1ccc(NC(=O)CN2C(=O)c3ccccc3S2(=O)=O)cc1 | KOS | TK-deficient acyclovir-resistant | HEL | cytopathic effect | >20 µM |
| O=C(NCc1ccc(Cl)cc1)c1c[nH]c2c(F)cccc2c1=O | KOS | - | - | - | 15 µM |
| Nc1nc(=O)n([C@@H]2O[C@H](CO)[C@@H](O)[C@@H]2F)cc1I | KOS | - | T-21 | cytopathic effect | 0.02 µg/mL |
| CC1(C)OCC2(CC(CO)OC2=O)O1 | - | - | CCL18 | - | >100 µM |
| Cn1cc(C(=O)NCc2ccc(Cl)cc2)c(=O)c2cc(CN3CCOCC3)ccc21 | E-115 | - | HFF | plaque count | 7.7 µM |
| N=c1ncn(Cc2ccco2)c2nc[nH]c12 | - | - | BSC-1 | plaque count | >50 µg/mL |
| O=c1[nH]c(=O)n([C@H]2C[C@H](O)[C@@H](CO)O2)cc1F | F | - | PRK | cytopathic effect | 10 µg/mL |
| Nc1nc2c(ncn2COCCP(=O)(N2CCOCC2)N2CCOCC2)c(=O)[nH]1 | L2/R | - | VERO E6 | cytopathic effect | >500 µM |
| Nc1ccn(C[C@@H](CO)OCP(=O)(O)O)c(=O)n1 | HMC (WILD TYPE) | - | MRC-5 | plaque count | 6.5 µM |
| O=c1[nH]c(=O)n([C@@H]2S[C@H](CO)[C@@H](O)[C@@H]2F)cc1I | VR-3 | - | CCRF-HSB-2 | plaque count | 0.046 µM |
| Nc1ncnc2c1ncn2C[C@H](O)CO | KOS | - | HSF | cytopathic effect | 20 µg/mL |
| N=c1ncn(Cc2cccc([N+](=O)[O-])c2)c2nc[nH]c12 | - | - | BSC-1 | plaque count | >50 µg/mL |
| O=c1[nH]c(=O)n([C@H]2C[C@H](O)[C@@H](CO)O2)cc1I | KOS | - | HeLa | cytopathic effect | 0.5 µg/mL |
| O=c1ccn([C@H]2C[C@](O)(CO)CO2)c(=O)[nH]1 | - | - | CCL18 | - | >100 µM |
| COc1ccc(N(CC(=O)NC(C)(C)C)C(=O)[C@H]2CC[C@@]3(C)C4CC=C5C[C@@H](O)CC[C@]5(C)C4CC[C@]23C)cc1 | KOS | - | Vero cells | plaque count | 10.4 µM |
| CC1(C)OCC2(COC(O)C2)O1 | - | - | CCL18 | - | >100 µM |
| Nc1nc2c(ncn2[C@@H]2C[C@H](CO)[C@H]2CO)c(=O)[nH]1 | KOS | - | WI-38 | plaque count | 0.4–0.8 µM |
| CCc1cn([C@@H]2S[C@H](CO)[C@@H](O)[C@@H]2F)c(=O)[nH]c1=O | VR-3 | - | CCRF-HSB-2 | plaque count | 0.052 µM |
| Nc1ccn([C@@H]2O[C@H](CO)[C@@H](O)[C@@H]2O)c(=O)n1 | KOS | - | Primary rabbit kidney cells | cytopathic effect | 0.04 µg/mL |
| CC(=O)Nc1cn([C@H]2C[C@H](OC(C)=O)[C@@H](COC(C)=O)O2)c(=O)[nH]c1=O | - | - | GMK | - | >400 µg/mL |
| O=C(OC[C@H]1O[C@@H](OC(=O)c2cc(O)c(O)c(O)c2)[C@H](O)[C@@H](OC(=O)c2cc(O)c(O)c(O)c2)[C@@H]1O)c1cc(O)c(O)c(O)c1 | HF | - | CV-1 | plaque count | 0.034 µg/mL |
| O=c1[nH]c(=O)n([C@H]2C[C@H](O)[C@@H](CO)O2)cc1/C=C/Br | VR-3 | - | CCRF-HSV-B | plaque count | 0.048 µg/mL |
| O=C(O)CP(=O)(O)O | - | - | WI-38 | cytopathic effect | <100 µg/mL |
| CC1(C)OCC(CO)(CC(O)CO)O1 | - | - | CCL18 | - | >100 µM |
| O=C(NCc1ccc(Cl)cc1)c1cn2c3c(cc(CN4CCOCC4)cc3c1=O)OC(c1cccnc1)C2 | L6183347 ACV resistant | - | HFF | plaque count | 14 µM |
| CC(=O)OC1CC2(CO1)COC(C)(C)O2 | - | - | CCL18 | - | >100 µM |
| Nc1ncnc2c1ncn2C[C@@H](CO)OCP(=O)(O)O | 1 (PAA-resistant) | - | PRK | cytopathic effect | 0.3 µg/mL |
| Cc1ccccc1Cn1cnc(=N)c2[nH]cnc21 | - | - | BSC-1 | plaque count | >50 µg/mL |
| Nc1ncnc2c1ncn2CC1(OCP(=O)(O)O)CC1 | - | - | HEPG2 2.2.18 | - | >30 µM |
| CCc1cn([C@@H]2O[C@H](CO)[C@@H](O)[C@@H]2F)c(=O)[nH]c1=O | VR-3 | - | CCRF-HSB-2 | plaque count | 0.02 µM |
| CNc1cn([C@H]2C[C@H](O)[C@@H](CO)O2)c(=O)[nH]c1=O | - | - | GMK | - | 2.5 µg/mL |
| O=C(O[C@@H]1O[C@@H]2COC(=O)c3cc(O)c(O)c(O)c3-c3c(cc(O)c(O)c3O)C(=O)O[C@H]2[C@@H]2OC(=O)c3cc(O)c(O)c(O)c3-c3c(cc(O)c(O)c3O)C(=O)O[C@@H]12)c1cc(O)c(O)c(O)c1 | HF | - | CV-1 | plaque count | 0.044 µg/mL |
| Cc1nc(N)nc2c1ncn2CC1(OCP(=O)(O)O)CC1 | - | - | HEPG2 2.2.19 | - | >30 µM |
| Cc1cn([C@H]2CC3(CO2)COC(C)(C)O3)c(=O)[nH]c1=O | - | - | CCL18 | - | >100 µM |
| Cc1cccc(Cn2cnc(=N)c3[nH]cnc32)c1 | - | - | BSC-1 | plaque count | >50 µg/mL |
| Nc1ncnc2c1ncn2[C@@H]1O[C@H](CO)[C@@H](O)[C@@H]1O | 76 | - | RK-13 | plaque count | 30 µM |
| O=C(OC1OC2COC(=O)c3cc(Oc4c(C(=O)OC5OC6COC(=O)c7cc(O)c(O)c(O)c7-c7c(cc(O)c(O)c7O)C(=O)OC6C(OC(=O)c6cc(O)c(O)c(O)c6)C5OC(=O)c5cc(O)c(O)c(O)c5)cc(O)c(O)c4O)c(O)c(O)c3-c3c(cc(O)c(O)c3O)C(=O)OC2C(OC(=O)c2cc(O)c(O)c(O)c2)C1OC(=O)c1cc(O)c(O)c(O)c1)c1cc(O)c(O)c(O)c1 | HF | - | CV-1 | plaque count | 0.034 µg/mL |
| Nc1nc2c(ncn2COCCO)c(=O)[nH]1 | McIntyre | - | PRK | cytopathic effect | 0.1 µg/mL |
| Nc1ccn([C@@H]2O[C@H](CO)[C@@H](O)[C@@H]2O)c(=O)n1 | KOS | - | ESM | cytopathic effect | 0.02 µg/mL |
| Cc1cc2nc3c4ccccc4n(Cc4ncc[nH]4)c3nc2cc1C | C42 | - | A549 | ELISA | 3.8 µM |
| O=C(Nc1ccn([C@H]2C[C@](O)(CO)CO2)c(=O)n1)c1ccccc1 | - | - | CCL18 | - | >100 µM |
| O=c1[nH]c(=O)n([C@@H]2O[C@H](CO)[C@@H](O)[C@@H]2F)cc1/C=C/Br | VR-3 | - | CCRF-HSB-2 | plaque count | 0.14 µM |
| c1ccc2nc3c(nc2c1)c1ccccc1n3Cc1nccs1 | C42 | - | A549 | ELISA | >30 µM |
| O=c1[nH]c(=O)n([C@H]2C[C@H](O)[C@@H](CO)O2)cc1I | HF | - | CV-1 | plaque count | 16 µg/mL |
| Nc1ncnc2c1ncn2[C@@H]1O[C@H](CO)[C@@H](O)[C@@H]1O | KOS | - | BALB/3T3 | cytopathic effect | 7 µg/mL |
| CCNc1nc(N)nc2c1ncn2CC1(OCP(=O)(O)O)CC1 | - | - | HEPG2 2.2.20 | - | >30 µM |

The first 8 rows once more:

structure,strain or isolate,mutations,cells,read by,result
COc1nc(=O)n([C@H]2C[C@H](O)[C@@H](CO)O2)cc1/C=C/Cl,VMW1837 (TK-),-,PRK,cytopathic effect,>200 µg/mL
Nc1c(N=Cc2ccc(C(F)(F)F)cc2)cc2cccnc2c1Cl,KOS,-,VERO 76,plaque count,90 µM
CC(C)(C)NC(=O)CN(C(=O)[C@H]1CC[C@@]2(C)C3CC=C4C[C@@H](O)CC[C@]4(C)C3CC[C@]12C)c1ccc(F)cc1,KOS,-,Vero cells,plaque count,12 µM
Nc1ncc2ncn(CC3(OCP(=O)(O)O)CC3)c2n1,-,-,HEPG2 2.2.16,-,>30 µM
Nc1nc2c(ncn2COC2COP(=O)(O)OC2)c(=O)[nH]1,ACG-R,-,MRC-5,plaque count,3–6 µM
Nc1nc2c(ncn2CC(CO)OCP(=O)(O)O)c(=O)[nH]1,Schooler,-,WI-38,plaque count,0.9 µM
Nc1ncnc2c1ncn2[C@@H]1O[C@H](CO)[C@@H](O)[C@H]1OP(=O)(O)OC[C@H]1O[C@@H](n2cnc3c(N)ncnc32)[C@H](OP(=O)(O)OC[C@H]2O[C@@H](n3cc(/C=C/Br)c(=O)[nH]c3=O)C[C@@H]2O)[C@@H]1O,F,-,PRK,cytopathic effect,0.07 µg/mL
C/C(=N/Nc1nc(-c2ccc(Br)cc2)cs1)c1ccc(NC(=O)CN2C(=O)c3ccccc3S2(=O)=O)cc1,KOS,TK-deficient acyclovir-resistant,HEL,cytopathic effect,>20 µM